Measured values from several laboratories, pooled; numbers as filed in NIAID ChemDB.

All rows: growth or infection tests; species: Mycobacterium tuberculosis

Percent inhibition refers to the dose given; in toxicity tests it is the harm to the cells. Neighbouring rows are from separate reports. MIC50, MIC90 and the like: level of inhibition, or share of isolates inhibited. MIC bound comes from a single tested concentration. An empty or dashed field is not shown.

compound,tested at,read-out,mutations,conditions,cell line,strain,method,value
COC1OC(=O)C(Cl)=C1N=[N+]=[N-],,MIC bound,,,,H37Rv,BACTEC,>12.5 µg/mL
CO/N=C(/CN1CCN(c2cc3c(cc2F)c(=O)c(C(=O)O)cn3C2CC2)CC1)c1ccco1,,MIC,,,,H37Rv,,>6.25 µg/mL
CCOC(=O)CC(NCc1ccccc1)c1cccc([N+](=O)[O-])c1,,MIC,,,,H37Ra,,>25 µg/mL
CO[C@H]1/C=C/O[C@@]2(C)Oc3c(C)c(O)c4c(O)c(c(/C=N/N5CCN(C)CC5)c(O)c4c3C2=O)NC(=O)/C(C)=C\C=C\[C@H](C)[C@H](O)[C@@H](C)[C@@H](O)[C@@H](C)[C@H](OC(C)=O)[C@@H]1C,,MIC,,,,M11,resazurin,>2 µg/mL
CC1CN(c2cc3c(cc2F)C(=O)c2nc4ccccc4c(=O)n2-3)CCN1C(=O)OC(C)(C)C,,MIC,,,,H37Rv,,>5 µg/mL
Cc1cccc(OC(=O)c2ccc(N)cc2O)c1,,MIC,,,,H37Rv (p-aminosalicylate-resistant),,75 µg/mL
COC(=O)[C@]1(C)CCC[C@]2(C)C3C[C@H]4OO[C@@]3(CC[C@@H]12)[C@H]1O[C@@]41C(C)C,,MIC,,,,H37Rv,BACTEC,≥12.8 µg/mL
Cc1cc(Oc2ccc(N)c3cccnc23)cc(C)c1Cl,,MIC,,,,H37Rv,,0.1 µg/mL
Nc1ccc(C(=O)N/N=C/c2ccccc2F)cc1,12.5 µg/mL,inhibition,,,,H37Rv,,6%
Cc1cc(COC(=O)c2ccc(N)cc2O)ccc1C(C)C,,MIC,,,,Frankfurt,,0.01 µg/mL
Oc1ccccc1CNCCCNCc1ccccc1O,,MIC,,,,H37Ra,,>25 µg/mL
CC(C)N=c1cc2n(-c3ccc(Cl)cc3)c3ccccc3nc-2cc1Nc1ccc(Cl)cc1,,MIC,,,,2230 (SM INH RIF-RES),,2 µg/mL
CO[C@H]1/C=C/O[C@@]2(C)Oc3c(C)c(O)c4c(O)c(c(/C=N/N5CCN(C)CC5)c(O)c4c3C2=O)NC(=O)/C(C)=C\C=C\[C@H](C)[C@H](O)[C@@H](C)[C@@H](O)[C@@H](C)[C@H](OC(C)=O)[C@@H]1C,,MIC,,,,CDC1551,BACTEC,0.063 µg/mL
Clc1ccc(Nc2cc3nc4ccccc4n(-c4ccc(Cl)c(Cl)c4)c-3cc2=NC2CCNCC2)cc1Cl,,MIC,,,,2225 (SM INH RIF-RES),,1 µg/mL
COc1ccc(CCN2C(=O)C(=O)N(c3cccc4c(N5C(=O)C(=O)N(CCc6ccc(OC)c(OC)c6)C5=O)cccc34)C2=O)cc1OC,,MIC bound,,,,H37Rv,BACTEC,>12.5 µg/mL
COC(=O)NC[C@H]1CN(c2ccc(N3C=NOCC3)c(F)c2)C(=O)O1,,MIC90,,,,20 clinical isolates,resazurin,500 µg/mL
N#Cc1ccc(-c2ccc(OCc3nn[nH]n3)cc2CN2CCN(c3ccccn3)CC2)cc1,,MIC,,,,H37Rv (ATCC 27294),broth dilution,64 µg/mL
COc1cc([C@](O)(CCN(C)C)[C@@H](c2cc(-c3cccnc3)cnc2OC)c2cccc(OC)c2F)cc(OC)n1,,MIC90,,,,H37Rv,resazurin,17.11 µM
Cc1cccc(Cl)c1Oc1ccc([N+](=O)[O-])c2cccnc12,,MIC,,,,H37Rv,,10 µg/mL
O=C1N(Cc2ccccc2)C2CCS(=O)CCC2N1Cc1ccccc1,12.5 µg/mL,inhibition,,,,H37Rv,BACTEC,0%
Cc1ccc2nc3n(c(=O)c2c1)-c1ccccc1C3=O,,MIC,,,,MDR 10038,,1 µg/mL
CCC1C[N+]2=C(c3cc(OC)c(OC)cc3CC2)c2c1cc1n2CCc2cc(OC)c(OC)cc2-1,,MIC,,,,CS-R,,3.2 µg/mL
CCCCCCCCC=CCCCCCCCCNCc1ccc(O)c(OC)c1,,MIC,,,,Sensitive strains,,1.56 µg/mL
NC(=O)c1cnccn1,,MIC,,,,T5721/NIACIN+,,>2048 µg/mL
C=CCOc1cc2oc3cc(O)c(CCC(C)C)c(O)c3c(=O)c2c(CCC(C)C)c1C(C)=O,,MIC,,,,H37Ra,resazurin,0.78 µg/mL
CC(NC(=O)c1ccccc1C(F)(F)F)c1nnc(SCCOc2ccc(F)cc2)n1Cc1ccc(F)cc1,,MIC,,14 d,,H37Rv (ATCC 27294),broth dilution,>64 µg/mL
O=[N+]([O-])c1ccc(S(=O)(=O)c2nc3ccccc3o2)c2ncccc12,,MIC,,,,H37Rv,,40 µg/mL
COC1C[C@H](C)[C@@H](OC)C2=CC(=O)C=C(NC(=O)/C(C)=C/C=C\[C@H](C)C(OC(N)=O)/C(C)=C/[C@@H](C)[C@@H]1OC)C2=O,,MIC,,,,PAS-R,,6.3 µg/mL
NNC(=O)c1ccncc1,,MIC,MDR,,,M27,resazurin,2 µg/mL
COc1cc(/C=N/NC(=O)c2ccc(N)cc2)ccc1O,,MIC,,,,H37Rv,,>12.5 µg/mL
O=C(O)c1cn(C2CC2)c2cc(N3CCN(C/C(=N/O)c4ccco4)CC3)c(F)cc2c1=O,,MIC,,,,H37Rv,,>6.25 µg/mL
CCN=c1cc2n(-c3ccc(Cl)cc3)c3ccccc3nc-2cc1Nc1ccc(Cl)cc1,,MIC,,,,2218 (SM INH THA-RES),,0.12 µg/mL
Cc1c(O)c(=O)ccn1CCN.Cl.Cl,,MIC,,,,H37Rv,BACTEC,≥12.5 µg/mL
COc1cc([C@@](O)(CCN(C)C)[C@@H](c2cc(-c3ccc(F)cc3)cnc2OC)c2cccc(OC)c2F)cc(OC)n1,,MIC90,,,,H37Rv,resazurin,13.67 µM
O=C1O[C@@H](CO)CN1c1ccc(N2C=NOCC2)c(F)c1,,MIC,,,,H37Rv,GFP / reporter gene,500 µg/mL
CN1CCN(c2cc3c(cc2F)C(=O)c2nc4cc(F)ccc4c(=O)n2-3)CC1,,MIC,,,,MDR 10038,,>5 µg/mL
COc1cc2c(cc1Oc1ccc(OC)c3c1CC1c4c(cc(OC)c(OC)c4-3)CCN1C)CC1c3c(cc(OC)c(OC)c3-2)CCN1C,,MIC,,,,H37Rv,BACTEC,6.25 µg/mL
CCCCCCCCCCCCCCCCNCc1ccc(F)cc1,,MIC,,,,H37Ra,,<25 µg/mL
O=C1c2ccccc2-n2c1nc1ccc([N+](=O)[O-])cc1c2=O,,MIC,,,,H37Rv,,>10 µg/mL
COc1cc([C@@](O)(CCN(C)C)[C@@H](c2cc(-c3cccnc3)cnc2OC)c2cccc(OC)c2F)cc(OC)n1,,MIC90,,,,H37Rv,resazurin,19.16 µM
COc1cc2oc3cc(O)c(CC=C(C)C)c(O)c3c(=O)c2c(CC=C(C)C)c1C(C)=O,,MIC,,,,H37Ra,resazurin,6.25 µg/mL
Nc1ccc(Sc2ccccn2)c2ncccc12,,MIC,,,,H37Rv,,100 µg/mL
CC(C)N=c1cc2n(-c3ccc(Cl)cc3)c3ccccc3nc-2cc1Nc1ccc(Cl)cc1,,MIC,,,,MDR14,broth dilution / resazurin,0.5 µg/mL
O=C(CN1CCN(c2cc3c(cc2F)c(=O)c(C(=O)O)cn3C2CC2)CC1)c1ccco1,,MIC,,,,H37Rv,,0.78 µg/mL
CCCCCCCCC=CCCCCCCCCNCc1ccccc1O,,MIC,,,,Clinical isolates MDR,,3.12 µg/mL
COc1ccc2cc(CN(C(=O)Nc3ccc(F)cc3)C3CCCCC3)c(=O)[nH]c2c1,,MIC,,14 d,,H37Rv (ATCC 27294),broth dilution,>64 µg/mL
CC[C@@H](CO)NCCN[C@@H](CC)CO,,MIC,,,,M-4,resazurin,>8 µg/mL
COc1cc([C@](O)(CCN(C)C)[C@@H](c2cc(-c3ccc(OC(F)(F)F)cc3)cnc2OC)c2cccc(OC)c2F)cc(OC)n1,,MIC90,,,,H37Rv,resazurin,1.09 µM
O=[N+]([O-])c1ccc(S(=O)(=O)c2nc3ccccc3[nH]2)c2ncccc12,,MIC,,,,H37Rv,,40 µg/mL
CC(=O)N[C@H]1CN(c2ccc(N3C=NN(C4=NC(=O)CS4)CC3)c(F)c2)C(=O)O1,,MIC,,,,H37Rv,GFP / reporter gene,250 µg/mL
CCCCCCCCCCCCNC(CC(=O)OCC)c1ccccc1[N+](=O)[O-],,MIC,,,,Sensitive strains,,25 µg/mL
Cc1ccc(NC(=S)SCc2ccco2)cc1Cl,,MIC bound,,,,H37Rv,BACTEC,>12.5 µg/mL
COc1cc2nc3n(c(=O)c2cc1OC)-c1ccccc1C3=O,,MIC,,,,H37Rv,,>10 µg/mL
CCOc1cc2oc3cc(O)c(CCC(C)C)c(O)c3c(=O)c2c(CCC(C)C)c1OC,,MIC,,,,M27,resazurin,1.56 µg/mL
Cc1ccc(N=Nc2c(S(=O)(=O)[O-])cc3cc(NC(=O)Nc4ccc5c(O)c(N=Nc6ccc7cc(S(=O)(=O)[O-])ccc7c6)c(S(=O)(=O)[O-])cc5c4)ccc3c2O)cc1.[Na+].[Na+].[Na+],12.5 µg/mL,inhibition,,,,H37Rv,BACTEC,0%
Nc1ccc(C(=O)Oc2ccccc2)c(O)c1,,MIC,,,,H37Rv (p-aminosalicylate-resistant),,75 µg/mL
O=C(O)c1cn(C2CC2)c2cc(N3CCN(C/C(=N/OCc4ccccc4)c4cccs4)CC3)c(F)cc2c1=O,,MIC,,,,H37Rv,,>6.25 µg/mL
Cc1cc(C)cc(Oc2ccc(N)c3cccnc23)c1,,MIC,,,,H37Rv,,0.1 µg/mL
Cc1ccc(NC(=O)CCCl)cc1Cl,12.5 µg/mL,inhibition,,,,H37Rv,BACTEC,39%
CCOC(=O)COc1ccc(-c2ccccc2Cl)c(CN2CCN(c3ccccn3)CC2)c1,,MIC,,,,H37Rv (ATCC 27294),broth dilution,8 µg/mL
CCCCCC(C)SC1(C(=O)OC)CC(OC(C)=O)C(NC(C)=O)C(C(OC(C)=O)C(COC(C)=O)OC(C)=O)O1,6.25 µg/mL,inhibition,,,,H37Rv,resazurin,-22%
CO[C@H]1/C=C/O[C@@]2(C)Oc3c(C)c(O)c4c(=O)c(c5oc6cc(N7CCN(CC(C)C)CC7)cc(=O)c6nc5c4c3=C2O)NC(=O)/C(C)=C\C=C\[C@H](C)[C@H](O)[C@@H](C)[C@@H](O)[C@@H](C)[C@H](OC(C)=O)[C@@H]1C,,MIC,,,,H37Rv,,0.0156 µg/mL
O=C(/C=C/c1ccccc1)n1ccnc1,6.25 µg/mL,inhibition,,,,H37Rv,resazurin,4%
CN1CCN(c2ccc(N3C[C@H](CO)OC3=O)cc2F)C=N1,,MIC,,,,H37Rv,GFP / reporter gene,500 µg/mL
O=C1C2C3C=CC(O3)C2C(=O)N1/N=C/C(O)C(O)C(O)C(O)CO,,MIC bound,,,,H37Rv,BACTEC,>12.5 µg/mL
COc1cc2oc3cc(O)c(CCC(C)C)c(O)c3c(=O)c2c(CCC(C)C)c1OC,,MIC,,,,M6,resazurin,1.56 µg/mL
CCCCCCCCC=CCCCCCCCCNCc1ccncc1,,MIC,,,,H37Ra,,<25 µg/mL
C/C([O-])=C(/c1nc(-c2ccc([N+](=O)[O-])o2)no1)[n+]1cc(C)ccc1C,,MIC,,,,H37Rv,BACTEC,12.5 µg/mL
COc1cc([C@](O)(CCN(C)C)[C@@H](c2cc(-c3ccncc3)cnc2OC)c2cccc(OC)c2F)cc(OC)n1,,MIC90,,,,H37Rv,resazurin,11.42 µM
Cc1cc(Oc2ccc(N)c3cccnc23)ccc1Cl,,MIC,,,,H37Rv,,0.1 µg/mL
N#Cc1c(-c2ccccc2)ssc1=S,12.5 µg/mL,inhibition,,,,H37Rv,BACTEC,73%
COC(=O)N[C@H]1CN(c2ccc(N3C=NN(C4=NC(=O)CS4)CC3)c(F)c2)C(=O)O1,,MIC90,,,,20 clinical isolates,resazurin,250 µg/mL
S=C(S)N1CCCC1,,MIC,,,VERO,H37Rv,,0.4 µg/mL
C/C(O)=c1/c(CCC(C)C)c2c(O)c3c(O)c(CCC(C)C)c(=O)cc3oc2cc1=O,,MIC,,,,H37Ra,resazurin,1.56 µg/mL
NNC(=O)c1cc(Cl)ccn1,12.5 µg/mL,inhibition,,,,H37Rv,BACTEC,35%
Nc1ccc(C(=O)N/N=C/c2ccncc2)cc1,,MIC,,,,H37Rv,,>12.5 µg/mL
CCC[CH2][Sn]1([CH2]CCC)[O]N=C(c2ccccc2)C(c2ccccc2)[O]1,,MIC,,,,H37Rv,BACTEC,32 µg/mL
CCCCCCCCC=CCCCCCCCCNCc1ccc(F)cc1,,MIC,,,,Sensitive strains,,12.5 µg/mL
CC(C)(O)c1cc2nc3ccccc3nc2n1CCO,,MIC bound,,,,H37Rv,resazurin,>6.25 µg/mL
CC(=O)/C(N=Nc1ccc(C(=O)N/N=C/c2ccccc2F)cc1)=C(\C)O,12.5 µg/mL,inhibition,,,,H37Rv,,20%

Again, the opening 6 rows:

compound | tested at | read-out | mutations | conditions | cell line | strain | method | value
COC1OC(=O)C(Cl)=C1N=[N+]=[N-] |  | MIC bound |  |  |  | H37Rv | BACTEC | >12.5 µg/mL
CO/N=C(/CN1CCN(c2cc3c(cc2F)c(=O)c(C(=O)O)cn3C2CC2)CC1)c1ccco1 |  | MIC |  |  |  | H37Rv |  | >6.25 µg/mL
CCOC(=O)CC(NCc1ccccc1)c1cccc([N+](=O)[O-])c1 |  | MIC |  |  |  | H37Ra |  | >25 µg/mL
CO[C@H]1/C=C/O[C@@]2(C)Oc3c(C)c(O)c4c(O)c(c(/C=N/N5CCN(C)CC5)c(O)c4c3C2=O)NC(=O)/C(C)=C\C=C\[C@H](C)[C@H](O)[C@@H](C)[C@@H](O)[C@@H](C)[C@H](OC(C)=O)[C@@H]1C |  | MIC |  |  |  | M11 | resazurin | >2 µg/mL
CC1CN(c2cc3c(cc2F)C(=O)c2nc4ccccc4c(=O)n2-3)CCN1C(=O)OC(C)(C)C |  | MIC |  |  |  | H37Rv |  | >5 µg/mL
Cc1cccc(OC(=O)c2ccc(N)cc2O)c1 |  | MIC |  |  |  | H37Rv (p-aminosalicylate-resistant) |  | 75 µg/mL